Earlier results, collected in PMC2858705 (PLoS Pathogens, 2010).

Target: nsp16 nsp16 (SARS coronavirus) (UniProt P0C6X7)
Test: SPR
Details: cited from earlier work

## nsp10 nsp10 (from UniProt P0C6X7)
  Kd: 250 nM
